Two compounds from patent US10087404B2, “Biological corrosion inhibitor for metals” (KURARAY CO., LTD., priority 2014, dated 2018) can be followed below.

The series deals with activated sludge. The series can be described thus: Biodegradability test (OECD test guideline 301C, JIS K 6950) with activated sludge. To be noted: for biodegradation rate in 28 days: 25° C., activated sludge 30 ppm; for degradability determination: 28 days.
The mark [1] stands for this setting: high concentration group (100 ppm).
Where [2] appears, read: low concentration group (30 ppm).

Molecules are shown by their SMILES.

In the case of `CC(CC=O)CC=O` [3-methylglutaraldehyde], under setting [1], the “biodegradation rate in 28 days” value is given as 64.8% and the degradability determination result was “highly degradable (When the biodegradation rate was 60% or more, the substance was determined as a highly degradable substance)”. In addition, under setting [2], the “biodegradation rate in 28 days” value was 97.2% and the degradability determination result is given as “highly degradable (When the biodegradation rate was 60% or more, the substance was determined as a highly degradable substance)”.
With `O=CCCCC=O` [glutaraldehyde], the “biodegradation rate in 28 days” value by setting is: under setting [1], 52.6%; under setting [2], 78.0%. The degradability determination result under setting [1] is “partially biodegradable (hardly degradable)” and the degradability determination result under setting [2] was “highly degradable (When the biodegradation rate was 60% or more, the substance was determined as a highly degradable substance)”.
